A mixed list of measured activities; the numbers were collected in NIAID ChemDB.

Common to all: tests in culture; organism: Mycobacterium tuberculosis

Inhibition is in % at the dose shown (toxicity tests: loss of growth or viability). Blank or dashed fields: not listed here. ECn: concentration that inhibits the pathogen or its effect by n%. MIC bound comes from a single tested concentration. Neighbouring rows are from separate reports.

SMILES,strain,cells,read by,read-out,tested at,value
O=CNc1ccc(Cl)c(C(F)(F)F)c1,H37Rv,-,BACTEC,MIC bound,-,>12.5 µg/mL
O=C1c2c(Cl)ccc(Cl)c2C(=O)c2c(Cl)ccc(Cl)c21,H37Rv,-,-,MIC,-,>100 µg/mL
Cn1nc2c(c(Cl)c1=O)Nc1ccccc1O2,H37Rv,-,BACTEC,inhibition,12.5 µg/mL,3%
COc1ccc(C2Oc3cc(F)ccc3C(=O)C2OC(C)=O)cc1,-,-,-,EC50,-,12.5 µg/mL
COc1ccc(Cc2c(C)cccc2O)c(C(=O)O)c1OC,H37Rv,-,-,MIC,-,>100 µg/mL
CCCCCCCCCCCCCCCc1cc(=O)[nH]c2ccc(C)cc12,H37Rv,-,BACTEC,MIC bound,-,>6.25 µg/mL
O=C1CC(c2ccc(Cl)cc2)Oc2ccccc21,H37Rv,-,-,EC50,-,>12.5 µg/mL
CN(C)c1ccc(-c2ccc3ccccc3n2)cc1,H37Rv,-,-,MIC,-,>100 µg/mL
O=C(O)c1ccc2c(c1)C(=O)CC(c1ccccc1)O2,-,-,-,EC50,-,>12.5 µg/mL
CC(CCC(=O)O)CC(=O)O,H37Rv,-,-,MIC,-,>100 µg/mL
CCC(CO)NCCNCC12CC3CC(CC(C3)C1)C2,-,-,-,MIC,-,9.4 µM
ClCC[N+]12CC[N+](CCCl)(CC1)C2.O=S(=O)([O-])[O-],H37Rv,-,BACTEC,inhibition,12.5 µg/mL,10%
COc1ccc(OC)c(CCNCCNCc2cccc(F)c2)c1,-,-,-,MIC,-,12.5 µM
CCCCC(CC)CN1CN(CC(CC)CCCC)CC(C)(NCCNCCCOCC)C1,-,-,-,MIC,-,12.5 µM
CCCCC(CC)CN1CN(CC(CC)CCCC)CC(C)(NCCNC2CCC(C)CC2)C1,-,-,-,MIC,-,25 µM
Cc1cc(C)c(C(=O)O)c(C)c1N,H37Rv,-,-,MIC,-,>100 µg/mL
Nc1ccc(C(=O)N/C(=C\c2cccc([N+](=O)[O-])c2)c2nc3c4c(ccc3[nH]2)C(=O)c2ccccc2C4=O)cc1,H37Rv,-,resazurin,inhibition,6.25 µg/mL,33%
Cl.NC(=Nc1ccccc1)c1ccc([N+](=O)[O-])cc1O,H37Rv,-,-,MIC,-,>100 µg/mL
OCCCCCNCCN(Cc1ccccc1)Cc1ccccc1,-,-,-,MIC,-,50 µM
O=C(c1ccccc1)N(Cc1ccccc1)Cc1ccccc1,H37Rv,-,-,MIC,-,>100 µg/mL
CC(C)(CO)NCCNCc1ccccc1,-,-,-,MIC,-,50 µM
Nc1c(I)cc(Nc2ccc(S(=O)(=O)O)cc2)c(S(=O)(=O)O)c1I,H37Rv,-,-,MIC,-,>100 µg/mL
CN1[C@@H](CC(=O)c2ccccc2)CCC[C@H]1CC(=O)c1ccccc1.Cl,H37Rv,-,BACTEC,inhibition,12.8 µg/mL,19%
C=CC(O)CSCCCCCCCCCCCCCCCC,H37Rv,-,-,MIC,-,100 µg/mL
CC(C)=CCC/C(C)=C/CNCCN[C@H]1C[C@H]2CC[C@]1(C)C2(C)C,-,-,-,MIC,-,12.5 µM
Nc1cccc(C(=O)/C=C/c2ccccc2I)c1,H37Rv,-,-,EC50,-,<12.5 µg/mL
COc1ccc2c(c1)c1c3n2CCNN=C3CCC1,H37Rv,-,BACTEC,MIC bound,-,>12.5 µg/mL
COc1cc(OC)c2c(c1)OC(c1cc(OC)c(OC)c(OC)c1)C(Br)(Br)C2=O,-,-,-,inhibition,12.5 µg/mL,16%
Cc1ccc(NCCN(C)C)c2c(=O)c3cccc(O)c3sc12,H37Rv,VERO,BACTEC,MIC,-,12.5 µg/mL
CCN(CC)CCNc1ccc(OC)cc1,H37Rv,-,-,MIC,-,50 µg/mL
CC1(C)[C@H]2CC[C@@H](CNCCNC3CCCCCCC3)[C@@H]1C2,-,-,-,MIC,-,12.5 µM
CCCCc1ccncc1,H37Rv,-,-,MIC,-,>100 µg/mL
CC(C)NCCNC[C@]1(C)CCC[C@]2(C)c3ccc(C(C)C)cc3CC[C@@H]12,-,-,-,MIC,-,50 µM
COc1cc2c(cc1OC)C13CCN4C(=O)C(=O)C(CC41)C1C(OCC(=O)O)CC(=O)N2C13,H37Rv,-,BACTEC,MIC bound,-,>12.5 µg/mL
CC(C)c1ccc(CC(=O)O)cc1,H37Rv,-,-,MIC,-,100 µg/mL
Nc1nc(N)c(N=Nc2ccc(C(=O)O)cc2)c(=O)[nH]1,H37Rv,-,BACTEC,MIC bound,-,>12.5 µg/mL
Cc1ccc(CNCCNC[C@]2(C)CCC[C@]3(C)c4ccc(C(C)C)cc4CC[C@@H]23)cc1,-,-,-,MIC,-,25 µM
Cn1cc(NC(=O)c2cc(NC(=O)c3cc(NC=O)cn3C)cn2C)cc1C(=O)NCCC(=N)N,TAC-R,-,-,MIC,-,6.4 µg/mL
O=C1C(=O)c2ccc(S(=O)(=O)O)cc2-c2ccccc21.[K+],H37Rv,-,-,MIC,-,>100 µg/mL
CCOC(=O)c1cc(-c2ccc3ccccc3n2)c(O)c2cc3ccccc3nc12,H37Rv,-,BACTEC,MIC bound,-,>12.5 µg/mL
CCCC1CS(=O)(=O)CC(CCC)S1(=O)=O,H37Rv,-,-,MIC,-,50 µg/mL
O=[N+]([O-])C1=CC(=N/Br)/C=CC/1=N\Br,H37Rv,-,BACTEC,inhibition,12.5 µg/mL,23%
CC(=O)C(C(c1ccccc1)N1CCOCC1)N1CCOCC1,H37Rv,-,-,MIC,-,>100 µg/mL
CC(C)c1ccc2c(c1)CC[C@H]1[C@](C)(CNCCN[C@H]3C[C@H]4C[C@@H]([C@@H]3C)C4(C)C)CCC[C@]21C,-,-,-,MIC,-,25 µM
S=C1N(CN2CCCCC2)CCN1CN1CCCCC1,H37Rv,-,BACTEC,inhibition,12.5 µg/mL,0%
CCCCCCCCCCCNCCN[C@H]1C[C@H]2C[C@@H]([C@@H]1C)C2(C)C,-,-,-,MIC,-,50 µM
Cc1cc(N=C2C=CC(=O)C=C2)ccc1O,H37Rv,-,BACTEC,MIC bound,-,>12.5 µg/mL
O=C1c2cccc(S(=O)(=O)[O-])c2C(=O)c2cccc(S(=O)(=O)[O-])c21.[K+].[K+],H37Rv,-,-,MIC,-,>100 µg/mL
O=C1CC(c2ccccc2)Oc2ccc(Cl)cc21,H37Rv,-,-,inhibition,12.5 µg/mL,30%
CC(C)c1ccc2c(c1)CC[C@H]1[C@](C)(CNCCN[C@H](CO)Cc3ccccc3)CCC[C@]21C,-,-,-,MIC,-,25 µM
COc1ccc(CCNCCNC(c2ccccc2)c2ccccc2)cc1OC,-,-,-,MIC,-,50 µM
CCOc1ccccc1Nc1nc(C)c(C(=O)CC(=O)C(=O)Nc2ccccc2)s1,H37Rv,-,resazurin,MIC bound,-,>6.25 µg/mL
COc1ccc(C2CCCCC2)cc1,H37Rv,-,-,MIC,-,>100 µg/mL
O=C1C=C(NCCCCC2CCCCC2)c2ccccc2C1=O,H37Rv,-,-,MIC bound,-,<6.25 µg/mL
CCC(C)C1NC(=O)NC1=O,H37Rv,-,-,MIC,-,>100 µg/mL
O=C1C=CC(=Nc2ccc(O)c3ncccc23)c2cccnc21,H37Rv,-,BACTEC,inhibition,12.5 µg/mL,-16%
Cc1cc(C)c(C(=Nc2ccccc2)C(=Nc2ccccc2)c2c(C)cc(C)cc2C)c(C)c1,H37Rv,-,-,MIC,-,>100 µg/mL
CC(C)(C)C1=CC(=CC=C2C=CN(CCCCCCCCCCCO)C=C2)C=C(C(C)(C)C)C1=O,H37Rv,VERO,-,MIC,-,1.6 µg/mL
Fc1ccc(CCNCCNCC2CCCO2)cc1,-,-,-,MIC,-,50 µM
S=C(S)N1CCNCC1,H37Rv,-,BACTEC,inhibition,12.5 µg/mL,24%
CNCCCc1cccs1.Cl,H37Rv,-,-,MIC,-,>800 µg/mL

Repeating the final 9 entries:

SMILES,strain,cells,read by,read-out,tested at,value
COc1ccc(C2CCCCC2)cc1,H37Rv,-,-,MIC,-,>100 µg/mL
O=C1C=C(NCCCCC2CCCCC2)c2ccccc2C1=O,H37Rv,-,-,MIC bound,-,<6.25 µg/mL
CCC(C)C1NC(=O)NC1=O,H37Rv,-,-,MIC,-,>100 µg/mL
O=C1C=CC(=Nc2ccc(O)c3ncccc23)c2cccnc21,H37Rv,-,BACTEC,inhibition,12.5 µg/mL,-16%
Cc1cc(C)c(C(=Nc2ccccc2)C(=Nc2ccccc2)c2c(C)cc(C)cc2C)c(C)c1,H37Rv,-,-,MIC,-,>100 µg/mL
CC(C)(C)C1=CC(=CC=C2C=CN(CCCCCCCCCCCO)C=C2)C=C(C(C)(C)C)C1=O,H37Rv,VERO,-,MIC,-,1.6 µg/mL
Fc1ccc(CCNCCNCC2CCCO2)cc1,-,-,-,MIC,-,50 µM
S=C(S)N1CCNCC1,H37Rv,-,BACTEC,inhibition,12.5 µg/mL,24%
CNCCCc1cccs1.Cl,H37Rv,-,-,MIC,-,>800 µg/mL